Anti-infective test results gathered from many reports (values: NIAID ChemDB through PubChem).

Shared fields: whole-cell or culture tests; agent: Human cytomegalovirus; read by: plaque count; read-out: EC50

ECn: concentration that inhibits the pathogen or its effect by n%.

structure | cells | strain or isolate | result
CCCCCCCCCCCCCCCCCCOCCOP(=O)(O)CO[C@H](CO)Cn1ccc(N)nc1=O | MRC-5 | C8708/17-1-1 | 0.001 µM
Cc1c(Br)cc(Br)c2ncc(CSCCCc3ccccc3)n12 | HEL | AD169 | 1 µg/mL
Nc1nc2c(ncn2COC(CO)CO)c(=O)[nH]1 | MRC-5 | C8803 | 3.4 µM
OC[C@H]1O[C@@H](n2c(Br)nc3cc(Cl)c(Cl)cc32)[C@H](O)[C@@H]1O | HFF | C8708/17-1-1 | 0.7 µM
Nc1nc(NC2CC2)c2ncn(C=C3CC3CO)c2n1 | HFF | TOWNE | 10.6 µM
Cc1ccc(CSCc2cnc3c(Br)cc(Br)c(C)n23)cc1 | HEL | DAVIS | >50 µg/mL
CCCCCCCC/C=C\CCCCCCCOCCOP1(=O)CO[C@@H](Cn2ccc(N)nc2=O)CO1 | HFF | AD169 | 0.002 µM
Nc1ccn(C=C2C[C@H]2CO)c(=O)n1 | HFF | AD169 | 9.8 µM
CCCCCCCCCCCCOCCCOP(=O)(O)CO[C@H](CO)Cn1ccc(N)nc1=O | HFF | GDGrP53 | 0.1 µM
Cc1c(Br)cc(Br)c2ncc(CSCc3ccc(Cl)cc3)n12 | HEL | AD169 | >20 µg/mL
Nc1nc2c(ncn2CCC(CO)CO)c(=O)[nH]1 | HEL | AD169 | >50 µg/mL
Nc1nc2c(ncn2/C=C2/CC2(CO)CO)c(=O)[nH]1 | HFF | C8704 9-1-4 (ganciclovir- foscarnet-resistant) | 0.3 µM
Nc1ncnc2c1ncn2C=C1CC1CO |  | VR5406 (ganciclovir-resistant) | 1.6 µM
Nc1ccn(C[C@@H](CO)OCP(=O)(O)O)c(=O)n1 | HFF | VR4955 (foscarnet-resistant) | 0.95 µM
O=C(NCc1ccc(Cl)cc1)c1c[nH]c2ccc(CCCO)cc2c1=O |  | WAT | 2.2 µM
Nc1nc2c(ncn2COC(CO)CO)c(=O)[nH]1 | HFF | Isolate Helebrand (resistant) | 2.93 µM
Nc1nc2c(ncn2COC(CO)CO)c(=O)[nH]1 | HFF | AD169 | 4.3 µM
Nc1ccn([C@@H]2C=C(CO)[C@@H](O)[C@H]2O)c(=O)n1 | HEL | DAVIS | 0.2 µg/mL
O=C(O)P(=O)(O)O | HFF | 1117R3-1-2 cidofovir-resistant | 35 µg/mL
CCCCCCCCCCCCCCCCCCOC[C@H](COP(=O)(O)CO[C@H](CO)Cn1ccc(N)nc1=O)OCc1ccccc1 | HFF | AD169 | 0.003 µM
O=C(NCc1ccc(Cl)cc1)c1c[nH]c2c(F)cccc2c1=O |  | 9 isolates | 12 µM
Cc1ccccc1CSCc1cnc2c(Br)cc(Br)c(C)n12 | HEL | AD169 | >50 µg/mL
Nc1ccn(C[C@@H](CO)OCP(=O)(O)O)c(=O)n1 | MRC-5 | WILD TYPE | 0.68 µM
Cc1c(Br)cc(Br)c2ncc(CSCc3ccc(Cl)cc3Cl)n12 | HEL | DAVIS | >5 µg/mL
Nc1[nH]nc2c1c1cc(Cl)c(Cl)cc1n2[C@@H]1O[C@H](CO)[C@@H](O)[C@H]1O | HFF |  | 4 µM
Cc1c(Br)cc(Br)c2ncc(CSCc3cccs3)n12 | HEL | DAVIS | >50 µg/mL
OC[C@H]1O[C@@H](n2c(Br)nc3cc(Cl)c(Cl)cc32)[C@H](O)[C@@H]1O | MRC-5 | 1038RB 8-3-3 (plaque-purified 1038RB strain) | 18 µM
CCCCCCCCCCCCCCCCOP(=O)(O)CO[C@H](CO)Cn1ccc(N)nc1=O | HFF | GDGrP53 | 0.06 µM
Cc1c(Br)cc(Br)c2ncc(CSCCc3ccccc3)n12 | HEL | DAVIS | 2.3 µg/mL
O[C@@H]1[C@H](O)[C@H](O)CO[C@H]1n1c(Br)nc2cc(Cl)c(Cl)cc21 | HFF | Toledo | 5.3 µM
Cc1c(Br)cc(Br)c2ncc(CSCc3ccco3)n12 | HEL | DAVIS | 4 µg/mL
CC(C)Nc1nc2cc(Cl)c(Cl)cc2n1[C@H]1O[C@@H](CO)[C@H](O)[C@@H]1O | HFF | Isolate Helebrand (wild type) | 0.33 µM
CCCCCCCC/C=C\CCCCCCCCOCCOP(=O)(O)CO[C@H](CO)Cn1ccc(N)nc1=O | HFF | 759rD100 | 0.04 µM
Nc1nc2c(ncn2COC(CO)CO)c(=O)[nH]1 |  | AD169 | 8.4 µM
Cc1c(Br)cc(Br)c2ncc(CSCc3cccc(C(F)(F)F)c3)n12 | HEL | AD169 | >50 µg/mL
Nc1ccn(C[C@@H](CO)OCP(=O)(O)O)c(=O)n1 | HFF | AD169 | 0.2 µg/mL
CCCCCCCCCCCCCCCCCCOCCOP1(=O)CO[C@@H](Cn2ccc(N)nc2=O)CO1 | MRC-5 | C8708/17-1-1 | 0.0025 µM
Nc1nc2c(ncn2[C@@H]2C[C@H](CO)[C@H]2CO)c(=O)[nH]1 | HFF | Isolate Helebrand (resistant) | 3.36 µM
Nc1nc2c(ncn2[C@@H]2CO[C@H](CO)[C@@H](O)C2)c(=O)[nH]1 |  |  | 1–10 µM
CC(C)Nc1nc2cc(Cl)c(Cl)cc2n1[C@H]1O[C@@H](CO)[C@H](O)[C@@H]1O | MRC-5 | C9213 | 0.4 µM
Nc1nc2c(ncn2COC(CO)CO)c(=O)[nH]1 | HEL | DAVIS | 0.62 µg/mL
Nc1nc2c(ncn2C=C2CC2CO)c(=O)[nH]1 | HFF | CH | 3.1 µM

Repeating the first 5 entries:

| structure | cells | strain or isolate | result |
|---|---|---|---|
| CCCCCCCCCCCCCCCCCCOCCOP(=O)(O)CO[C@H](CO)Cn1ccc(N)nc1=O | MRC-5 | C8708/17-1-1 | 0.001 µM |
| Cc1c(Br)cc(Br)c2ncc(CSCCCc3ccccc3)n12 | HEL | AD169 | 1 µg/mL |
| Nc1nc2c(ncn2COC(CO)CO)c(=O)[nH]1 | MRC-5 | C8803 | 3.4 µM |
| OC[C@H]1O[C@@H](n2c(Br)nc3cc(Cl)c(Cl)cc32)[C@H](O)[C@@H]1O | HFF | C8708/17-1-1 | 0.7 µM |
| Nc1nc(NC2CC2)c2ncn(C=C3CC3CO)c2n1 | HFF | TOWNE | 10.6 µM |

Two numbers with a dash give a range or band. Blank or dashed fields: not listed here. Conditions beyond the fields shown may differ between rows.